Compound potency records, mixed from different reports. Data source: NIAID ChemDB in PubChem.

All rows: growth or infection tests; organism: HIV-1; method: luciferase; measure: EC50

Conditions beyond the fields shown may differ between rows. ECn: concentration that inhibits the pathogen or its effect by n%. Blank or dashed fields: not listed here.

{"structure": "CN(C)CCCN=C(c1ccccc1)N1CCN(C(=O)C(=O)c2c[nH]c3cccc(F)c23)CC1", "strain or isolate": "Luciferase reporter virus", "cell line": "HeLa(CD4+) + HeLa", "value": ">0.5 µM"}
{"structure": "C[C@@H]1CN(C(=O)c2ccc(Br)o2)CCN1C(=O)C(=O)c1c[nH]c2c(F)ccc(F)c12", "cell line": "HeLa + HELA CD4+/CCR5", "value": "<10 µM"}
{"structure": "N#CN=C(c1ccccc1)N1CCN(C(=O)C(=O)c2c[nH]c3cccc(F)c23)CC1", "strain or isolate": "Luciferase reporter virus", "cell line": "HeLa(CD4+) + HeLa", "value": "<0.5 µM"}
{"structure": "CN(C(=O)[C@H](Cc1ccccc1)NC(=O)NS(=O)(=O)N[C@@H](Cc1ccccc1)C(=O)N(C)c1ccccc1)c1ccccc1", "strain or isolate": "NL4-3", "cell line": "MT-2", "value": "0.97 µM"}
{"structure": "O=C(C(=O)N1CCN(C(=O)c2cccc(S)c2)CC1)c1c[nH]c2cccc(Cl)c12", "cell line": "HeLa + HELA CD4+/CCR5", "value": "<10 µM"}
{"structure": "C#CC(=C1CCN(C(=O)C(=O)c2c[nH]c3c(OC)ncc(OC)c23)CC1)c1ccccc1", "cell line": "HeLa", "value": "<1 µM"}
{"structure": "COc1ccc(N(C)C(=O)[C@H](Cc2ccccc2)NC(=O)NS(=O)(=O)N[C@@H](Cc2ccccc2)C(=O)N(C)c2cc(C)c(OC)cc2C)cc1", "strain or isolate": "NL4-3", "cell line": "MT-2", "value": "4.22 µM"}
{"structure": "Cc1cc(S(N)(=O)=O)ccc1NC(=O)COc1ccc(Cl)cc1C(=O)c1cc(F)cc(C(F)(F)F)c1", "strain or isolate": "IIIB", "cell line": "HELA MAGI", "changes": "RT-K103N L100I", "value": "0.003 µM"}
{"structure": "Cc1cc(C#N)cc(C)c1Oc1nc(Nc2ccc(C#N)cc2)nc(N)c1Br", "strain or isolate": "MJ4 C", "cell line": "HEK293T", "changes": "N348I", "value": "2.05 nM"}
{"structure": "COc1cnc(-c2ccc(C(=O)N3CCCC3)cc2)c2[nH]cc(C(=O)C(=O)N3CCC(=C(C#N)c4ccccc4)CC3)c12", "cell line": "HeLa", "value": "<1 µM"}
{"structure": "C[C@@H]1CN(C(=O)c2ccccc2)CCN1C(=O)C(=O)c1c[nH]c2ccc(F)cc12", "cell line": "HeLa + HELA CD4+/CCR5", "value": "<10 µM"}
{"structure": "COc1ccc(N(C)C(=O)[C@H](Cc2ccccc2)NC(=O)c2ccccc2C(=O)N[C@@H](Cc2ccccc2)C(=O)N(C)c2ccc(OC)cc2)cc1", "strain or isolate": "NL4-3", "cell line": "MT-2", "value": "0.9 µM"}
{"structure": "Nc1ccn([C@@H]2CS[C@H](CO)O2)c(=O)n1", "strain or isolate": "NL4-3", "cell line": "TZM-bl", "changes": "R263K", "value": "0.00037 µM"}
{"structure": "COc1ccc(N(C)C(=O)[C@H](Cc2ccccc2)NC(=O)Cn2c(=O)n(CC(=O)N[C@@H](Cc3ccccc3)C(=O)N(C)c3ccc(OC)cc3)c3ccccc32)cc1", "strain or isolate": "NL4-3", "cell line": "MT-2", "value": "0.07 µM"}
{"structure": "COc1ccnc2[nH]cc(C(=O)C(=O)N3CCN(C(=O)c4ccccc4)C[C@H]3C)c12", "strain or isolate": "ZM214", "cell line": "TZM-bl", "value": "0.005 µM"}
{"structure": "C[C@H]1CN(C(=NC#N)c2ccccc2)CCN1C(=O)C(=O)c1c[nH]c2c(-c3ccccn3)ccc(F)c12", "strain or isolate": "Luciferase reporter virus", "cell line": "HeLa(CD4+) + HeLa", "value": "<0.5 µM"}
{"structure": "C[C@]1(CO)O[C@@H](n2cnc3c(N)ncnc32)C[C@@H]1O", "cell line": "HOS", "changes": "SSGR+T215Y (delta)Env", "value": "0.025 µM"}
{"structure": "CCN(C(=O)[C@H](Cc1cc(F)cc(F)c1)NC(=O)NS(=O)(=O)N[C@@H](Cc1cc(F)cc(F)c1)C(=O)N(CC)c1ccc2oc(=O)n(CC)c2c1)c1ccc2oc(=O)n(CC)c2c1", "strain or isolate": "NL4-3", "cell line": "MT-2", "value": "24.73 µM"}
{"structure": "COc1c(Cl)cc(S)cc1C(=O)N1CCN(C(=O)C(=O)c2c[nH]c3cccc(F)c23)CC1", "cell line": "HeLa + HELA CD4+/CCR5", "value": "<10 µM"}
{"structure": "N#CN=C(c1ccccn1)N1CCN(C(=O)C(=O)c2c[nH]c3c(-n4ccnn4)ncc(F)c23)CC1", "strain or isolate": "Luciferase reporter virus", "cell line": "HeLa(CD4+) + HeLa", "value": "<0.5 µM"}
{"structure": "Cc1ccc(F)c2c(C(=O)C(=O)N3CCN(C(=O)c4ccccc4)C[C@H]3C)c[nH]c12", "cell line": "HeLa + HELA CD4+/CCR5", "value": "<10 µM"}
{"structure": "CN(C(=O)[C@H](Cc1cc(F)cc(F)c1)NC(=O)NS(=O)(=O)N[C@@H](Cc1cc(F)cc(F)c1)C(=O)N(C)c1ccc2c(c1)ncn2C)c1ccc2c(c1)ncn2C", "strain or isolate": "NL4-3", "cell line": "MT-2", "value": "6.15 µM"}
{"structure": "COc1ccnc2[nH]cc(C(=O)C(=O)N3C4CCCC3CN(C(=O)c3ccccc3)C4)c12", "strain or isolate": "QH0692", "cell line": "TZM-bl", "value": "1.9 µM"}
{"structure": "COc1ccc(N(C)C(=O)[C@H](Cc2ccccc2)NC(=O)CC(C)(C)CC(=O)N[C@@H](Cc2ccccc2)C(=O)N(C)c2ccc(OC)cc2)cc1", "strain or isolate": "NL4-3", "cell line": "MT-2", "value": "3.98 µM"}
{"structure": "COc1cnc(-n2cnc(C)n2)c2[nH]cc(C(=O)C(=O)N3CCC(=C(c4ccccc4)c4nnc(C(C)C)o4)CC3)c12", "cell line": "HeLa", "value": "<1 µM"}
{"structure": "COc1ccc(F)c2c(C(=O)C(=O)N3CCN(C(=O)c4ccccn4)C[C@H]3C)c[nH]c12", "cell line": "HeLa + HELA CD4+/CCR5", "value": "<10 µM"}
{"structure": "CCc1ccc(N(C)C(=O)[C@H](Cc2cc(F)cc(F)c2)NC(=O)NS(=O)(=O)N[C@@H](Cc2cc(F)cc(F)c2)C(=O)N(C)c2ccc(CC)nc2)cn1", "strain or isolate": "NL4-3", "cell line": "MT-2", "value": "0.03 µM"}
{"structure": "COc1ncc(OC)c2c(C(=O)C(=O)N3CCC(=C(C#CC4CC4)c4ccccc4)CC3)c[nH]c12", "cell line": "HeLa", "value": "<1 µM"}
{"structure": "CN(C)S(=O)(=O)/N=C(\\c1ccccc1)N1CCN(C(=O)C(=O)c2c[nH]c3c(-n4ccnn4)ncc(F)c23)CC1", "strain or isolate": "Luciferase reporter virus", "cell line": "HeLa(CD4+) + HeLa", "value": "<0.5 µM"}
{"structure": "N#CC(=C1CCN(C(=O)C(=O)c2c[nH]c3c(-c4nccs4)ccnc23)CC1)c1ccccc1", "cell line": "HeLa", "value": "<1 µM"}
{"structure": "Cc1nc2cc(N(C)C(=O)[C@H](Cc3cc(F)cc(F)c3)NC(=O)c3ccc(F)c(C(=O)N[C@@H](Cc4cc(F)cc(F)c4)C(=O)N(C)c4ccc5sc(C)nc5c4)c3)ccc2s1", "strain or isolate": "NL4-3", "cell line": "MT-2", "value": "0.18 µM"}

A second listing of 4 rows from above:

| structure | strain or isolate | cell line | changes | value |
|---|---|---|---|---|
| C[C@@H]1CN(C(=O)c2ccccc2)CCN1C(=O)C(=O)c1c[nH]c2ccc(F)cc12 |  | HeLa + HELA CD4+/CCR5 |  | <10 µM |
| C[C@]1(CO)O[C@@H](n2cnc3c(N)ncnc32)C[C@@H]1O |  | HOS | SSGR+T215Y (delta)Env | 0.025 µM |
| COc1c(Cl)cc(S)cc1C(=O)N1CCN(C(=O)C(=O)c2c[nH]c3cccc(F)c23)CC1 |  | HeLa + HELA CD4+/CCR5 |  | <10 µM |
| COc1ccnc2[nH]cc(C(=O)C(=O)N3CCN(C(=O)c4ccccc4)C[C@H]3C)c12 | ZM214 | TZM-bl |  | 0.005 µM |